Reference: paper PMC5854701 (Scientific Reports, 2018)
Where “and” joins values, the source holds several entries; their conditions need not be identical. Identical values can stand only once. Only a part of the results on these compounds is given; other tests are left out.

Test system: A/WSN/33 (H1N1)
Test: Antiviral plaque reduction assay
Details: 5 µM compound; for % plaque formation at 5 µM: plaque assay

Row | SMILES | % plaque formation at 5 µM | antiviral activity in plaque assay (in words)
1 | O=c1[nH]c2ccccc2n1C1CCN(C(c2ccsc2)c2nnnn2C2CCCCC2)CC1 (stereo not drawn) | 73.9 ± 8.2% | 
2 | O=c1[nH]c2ccccc2n1C1CCN(C(c2cccc3ccccc23)c2nnnn2C2CCCC2)CC1 (stereo not drawn) | 73.0% and 73.0 ± 6.5% | not active
